Measurements: publication PMC3842668, “Dual-acting stapled peptides target both HIV-1 entry and assembly” (Retrovirology, 2013)
Where a SMILES comes first, the peptide text is derived from it. Bridges are numbered along the chain shown (N, C = ends). [ ]: non-standard residue; d: D form. R8 = C=CCCCCCC[C@@](C)(N)C(=O)O; S5 = C=CCCC[C@](C)(N)C(=O)O

Key:
CA CTD (W184A/M185A) = target: T1, CA CTD (W184A/M185A) (Human immunodeficiency virus type 1 group M subtype B, UniProt P12493, M317A/W316A); type: binding, HIV-1; settings: ITC
T1 construct: The C-CA (CTD) DNA fragment was subcloned into the pET14b vector; made in house

[1] = target: monomeric HIV-1 CA, p24-W184A/M185A (Human immunodeficiency virus type 1 group M subtype B, UniProt P12493, M317A/W316A); settings: 35°C, 50 mM NaOAc pH 5.5, 5 mM DTT, 10% D2O

SMILES: CC[C@H](C)[C@H](NC(C)=O)C(=O)N[C@@H](CO)C(=O)N[C@@H](Cc1ccccc1)C(=O)N[C@]1(C)CCCCCCC=CCCC[C@@](C)(C(=O)N[C@@H](CCC(=O)O)C(=O)N[C@@H](CO)C(=O)NCC(=O)N[C@@H](CO)C(N)=O)NC(=O)[C@H](Cc2ccc(O)cc2)NC(=O)[C@H](Cc2ccc(O)cc2)NC(=O)[C@H](CC(=O)O)NC(=O)[C@H](CC(C)C)NC(=O)[C@H](CC(C)C)NC(=O)[C@H](CCC(=O)O)NC1=O [NYAD-36] (Ac-ISF[R8]ELLDYY[S5]ESGS-NH2; staple 4-11)
- fold lower affinity towards the CA CTD compared to NYAD-1, -66 and -67 (CA CTD (W184A/M185A)): 3-5 fold
- NMR spectral changes upon titration (in words) [1]: significant NMR spectral changes consistent with tight binding

SMILES: CC[C@H](C)[C@H](NC(C)=O)C(=O)N[C@@H](CO)C(=O)N[C@@H](Cc1ccccc1)C(=O)N[C@]1(C)CCCCCCC=CCCC[C@@](C)(C(=O)N[C@@H](CCC(=O)O)C(=O)N[C@@H](CC(=O)O)C(N)=O)NC(=O)[C@H](Cc2ccc(O)cc2)NC(=O)[C@H](Cc2ccc(O)cc2)NC(=O)[C@H](CC(=O)O)NC(=O)[C@H](CC(C)C)NC(=O)[C@H](CC(C)C)NC(=O)[C@H](CCC(=O)O)NC1=O [NYAD-66] (Ac-ISF[R8]ELLDYY[S5]ED-NH2; staple 4-11)
- NMR spectral changes upon titration (in words) [1]: significant NMR spectral changes consistent with tight binding

SMILES: CC[C@H](C)[C@H](NC(C)=O)C(=O)N[C@@H](CO)C(=O)N[C@@H](Cc1ccccc1)C(=O)N[C@]1(C)CCCCCCC=CCCC[C@@](C)(C(=O)N[C@@H](CCC(=O)O)C(=O)N[C@@H](CC(=O)O)C(=O)N[C@@H](CCC(=O)O)C(N)=O)NC(=O)[C@H](Cc2ccc(O)cc2)NC(=O)[C@H](C)NC(=O)[C@H](CCC(N)=O)NC(=O)[C@H](CC(C)C)NC(=O)[C@H](Cc2c[nH]c3ccccc23)NC(=O)[C@H](CCC(=O)O)NC1=O [NYAD-67] (Ac-ISF[R8]EWLQAY[S5]EDE-NH2; staple 4-11)
- NMR spectral changes upon titration (in words) [1]: significant NMR spectral changes consistent with tight binding
